Biological target: biotinylated influenza hemagglutinin (HA) from H1N1 A/California/07/2009 (Influenza A virus A/California/07/2009 …, UniProt C3W5X2, strain, biotinylated)
Assay: BLI
Conditions: both partners purified

B1: 5J8 Fab VL D50Y (Fab, V domains shown)
VH: EVQLVESGPGLVKPSDILSLTCAVSGYSISSNYYWGWIRQPPGKGLEWIGSIYHSGSTYYKPSLESRLGISVDTSKNQFSLKLSFVSAADTAVYYCARHVRSGYPDTAYYFDKWGQGTLVTVSS
VL: SYVLTQPPSVSVAPGETARISCGGNNIGTKVLHWYQQTPGQAPVLVVYYDSDRPSGIPERFSGSNSGNTATLTISRVEVGDEADYYCQVWDISTDQAVFGGGTKLTVL
  binding result: no binding (tested: 33 nM, 100 nM, and 300 nM)

Source: publication PMC10636607 (Cell Reports, 2023)
